Laboratory results reported in the supplement of paper PMC9931576.
Human monoclonal antibodies against the spike receptor-binding domain (heavy:light variable regions). IC50 against pseudoviruses bearing the spike of naturally observed variants; lower = stronger; >10 µg/ml means not reached at the top dose. No active / inactive call. The stated detection limit is 0.0005 µg/ml; values near or below 0.001 µg/ml lie at the floor of the assay.

Legend:
Experiment in all cases: pseudovirus neutralization IC50; higher = weaker neutralization
[1] = target: SARS-CoV-2 Omicron BA.1 spike pseudovirus
Procedure: (§1)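 Single-round VSV luciferase pseudovirus mixed with antibody dilutions for 1 h and put on Huh-7 cells for about a day; IC50 from the dose curve.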

[2] = target: SARS-CoV-2 Omicron BA.2 spike pseudovirus
Procedure: as §1

[3] = target: SARS-CoV-2 Omicron BA.2.75 spike pseudovirus
Procedure: as §1

[4] = target: SARS-CoV-2 Omicron BA.5 spike pseudovirus
Procedure: as §1

[5] = target: SARS-CoV-2 Omicron BQ.1.1 spike pseudovirus
Procedure: as §1

[6] = target: SARS-CoV-2 Omicron XBB spike pseudovirus
Procedure: as §1

[7] = target: SARS-CoV-2 early D614G spike pseudovirus
Procedure: as §1

B1: BD57-0183 (protein)
chain 1: EVQLVAWGGGLVQPGRSLRLSCAASGFTFDDYAMHWVRQAPGKGLEWVSSFNRKTATILYADSVKGRFTISRDSAKNSLFLQMNSLRAEDTAFYYCVKSPAVVADDYYFDYWGQGTLVTVSS
chain 2: SYDLTQPPSVSVSPGQTARITCSGDAFPNLYSYWYQQKPGQAPVLVIYKDIERPSGIPERFSGSTSGTTVTLTISGVQAEDEADYYCQSADSSGTRFGGGTKLTVL
pseudovirus neutralization IC50 [1]: > 10 µg/mL
pseudovirus neutralization IC50 [2]: > 10 µg/mL
pseudovirus neutralization IC50 [3]: > 10 µg/mL
pseudovirus neutralization IC50 [4]: > 10 µg/mL
pseudovirus neutralization IC50 [5]: > 10 µg/mL
pseudovirus neutralization IC50 [6]: > 10 µg/mL
pseudovirus neutralization IC50 [7]: > 10 µg/mL

B2: BD57-0196 (protein)
chain 1: QVTLKESGPVLVKPTETLTLTCTVSGFSLNNAKMGVSLIRQPPGKALEWLGHIFSNDEKSYSTSLKSRLTISKDTSKSQVVLTMTNMDPVDTATYYCARILESGSGSYYTGDNWFDPWGQGTLVTVSS
chain 2: SSELTQPPSVSVSPGQTARITCSGDAFPNQYAYWYQQKPGQAPVLVIYKDSERPSGIPERFSGSSSGTKVTLTISGVQAEDEADYYCQSADSSGVVFGGGTKLTVL
pseudovirus neutralization IC50 [1]: > 10 µg/mL
pseudovirus neutralization IC50 [2]: > 10 µg/mL
pseudovirus neutralization IC50 [3]: > 10 µg/mL
pseudovirus neutralization IC50 [4]: > 10 µg/mL
pseudovirus neutralization IC50 [5]: > 10 µg/mL
pseudovirus neutralization IC50 [6]: > 10 µg/mL
pseudovirus neutralization IC50 [7]: > 10 µg/mL

B3: BD57-0168 (protein)
chain 1: QVQLVQSGAEVKKPGSSVKVSCKTSGGSFGTYGISWVRQAPGQGLEWMGGIIPMVGRPTYAQRFQGRVTITADESTTTAYLEMRSLTFQDTAVYYCARDSTLREWKPGLTWFDPWGQGTLVTVSS
chain 2: DIQMTQSPSSLSASVGDRVTFTCRASQSISDFLNWYQQKPGEAPKLLIYAASTLQGGVPSRFSGSGSGTDFTLTISSLQPEDFATYYCQQSYSAPRTFGQGTKVDIK
pseudovirus neutralization IC50 [1]: 0.233 µg/mL
pseudovirus neutralization IC50 [2]: 0.235 µg/mL
pseudovirus neutralization IC50 [3]: 0.00124 µg/mL
pseudovirus neutralization IC50 [4]: 0.817 µg/mL
pseudovirus neutralization IC50 [5]: 0.855 µg/mL
pseudovirus neutralization IC50 [6]: > 10 µg/mL
pseudovirus neutralization IC50 [7]: 0.00073 µg/mL

B4: BD57-0184 (protein)
chain 1: EVQLVQSGTEVKKPGESLKISCKGSGFSFISYWIGWVRQMPGKGLEWMGIIYPGDSDTIYSPSFQGQVTISADKSISAAYLQWNSLQASDTAMYYCARRDSGSYSGFFDSWGQGTLVTVSS
chain 2: QSVLTQPPSASGTPGQRVTISCSGSSSNIGSNPVSWYQQLPGTAPKLLIYNNNQRPSGVPDRFSGSKAGTSASLAMSGLQSEDEADYYCASWDDSLNGGVFGGGTKLSVL
pseudovirus neutralization IC50 [1]: 0.422 µg/mL
pseudovirus neutralization IC50 [2]: 0.615 µg/mL
pseudovirus neutralization IC50 [3]: 0.59 µg/mL
pseudovirus neutralization IC50 [4]: 0.495 µg/mL
pseudovirus neutralization IC50 [5]: 0.654 µg/mL
pseudovirus neutralization IC50 [6]: 1 µg/mL
pseudovirus neutralization IC50 [7]: 0.952 µg/mL

B5: BD57-0186 (protein)
chain 1: QVQLVQSGAEVKKPGSSVRVSCKASGGTLSNNAINWVRQAPGQGLEWMGRLTPILGTANYAQRFQGRVTITADKSTNTAYMDLSSLRSEDTAVYYCARGVVVVSATDDYSYYYGLDVWGQGTTVTVSS
chain 2: SYELTQPPSVSVSPGQTARITCSGDALPKQYAYWYQQKPGQAPVMVINKDSERPSEIPERFSGSTSGTTVTLTISGVQAEDEADYYCQSADSAGTSVLFGGGTKLTVL
pseudovirus neutralization IC50 [1]: 0.341 µg/mL
pseudovirus neutralization IC50 [2]: 0.615 µg/mL
pseudovirus neutralization IC50 [3]: 0.421 µg/mL
pseudovirus neutralization IC50 [4]: 0.944 µg/mL
pseudovirus neutralization IC50 [5]: 2.2 µg/mL
pseudovirus neutralization IC50 [6]: 1.96 µg/mL
pseudovirus neutralization IC50 [7]: 1.25 µg/mL

B6: BD57-0171 (protein)
chain 1: EVQLVQSGAEVKKPGESLKISCKGFGYSFSNYWIGWVRQMPGKGLEWMGIIYNVDSDTRYNPAFQGQVTISADNSISTAYLQWSSLKASDSAIYYCVRQHTSGWWAGDSWGQGTLVTVSS
chain 2: EIVMTQSPATLSVSPGEGATLSCRASQSVSSNLAWYQQKPGQAPRLLFYGASTRATGIPARFSASGSGTEFTLSISSLQSEDFAVYYCQQYNNWPPWTFGQGTKVDIK
pseudovirus neutralization IC50 [1]: > 10 µg/mL
pseudovirus neutralization IC50 [2]: > 10 µg/mL
pseudovirus neutralization IC50 [3]: > 10 µg/mL
pseudovirus neutralization IC50 [4]: 1.81 µg/mL
pseudovirus neutralization IC50 [5]: > 10 µg/mL
pseudovirus neutralization IC50 [6]: > 10 µg/mL
pseudovirus neutralization IC50 [7]: 0.00312 µg/mL

B7: BD57-0162 (protein)
chain 1: QVQLVQSGAEVKKPGSSVKVSCKASGGTFSNYGFTWVRQAPGQGLEWVGGIIPMFGTLNYGQRVHDRVTITADESTSTVYMELSSLISEDTAIYYCIARWARANYYSYFLDVWAKGTTVTVSS
chain 2: EIVMTQSPATLSVSPGERATLSCRASQSISTNLAWYQQKPGQAPRLLIYGASTRATGIPARFSGSGSETEFTLIISSLQSEDSGVYYCQRYNNWPLWTFGQGTQVEIK
pseudovirus neutralization IC50 [1]: > 10 µg/mL
pseudovirus neutralization IC50 [2]: > 10 µg/mL
pseudovirus neutralization IC50 [3]: > 10 µg/mL
pseudovirus neutralization IC50 [4]: > 10 µg/mL
pseudovirus neutralization IC50 [5]: > 10 µg/mL
pseudovirus neutralization IC50 [6]: > 10 µg/mL
pseudovirus neutralization IC50 [7]: > 10 µg/mL

B8: BD57-0177 (protein)
chain 1: QVQLVQSGVEVKKPGSSVKVSCQASGGSFSSYAISWMRQAPGQGLEWLGGIIPIFGTAHYAQKFQGRVTITADRSTTTAYMEMRSLTSEDTAVYYCAKDSPDRSSSPARPSFYYYEMDVWGQGTTVIVSS
chain 2: DIQMTQSPSPLSASVGDRVTITCQASQAISNHLNWYQQKPGRAPRLLIYDASILETGVPSRFSASGSGTDFTFTISSLQPEDIATYYCQQYDDLPITFGQGTRLEIK
pseudovirus neutralization IC50 [1]: 0.0762 µg/mL
pseudovirus neutralization IC50 [2]: 0.057 µg/mL
pseudovirus neutralization IC50 [3]: 0.0721 µg/mL
pseudovirus neutralization IC50 [4]: 0.0832 µg/mL
pseudovirus neutralization IC50 [5]: > 10 µg/mL
pseudovirus neutralization IC50 [6]: > 10 µg/mL
pseudovirus neutralization IC50 [7]: 0.027 µg/mL

B9: BD57-0181 (protein)
chain 1: QVQLQESGPGLVKPSQALSLTCSVSGGSISSGGHYWNWIRQHPEKGLEWIGNIYYSGSTNYNPSLKRRVTMSVDTSKNQFSLSLTSVTAADTAVYYCARDFGGNANYFAFWGQGTLVTVSS
chain 2: DIQMTQSPSSLSASVGDKVTITCQASQDISNYLSWYQQKPGKAPKLLIYDASNLETGVSLRFSGRGSGTHFTFTISSLQPEDIATYFCQQYNNVPITFGQGTRLEIK
pseudovirus neutralization IC50 [1]: 1.6 µg/mL
pseudovirus neutralization IC50 [2]: 1.67 µg/mL
pseudovirus neutralization IC50 [3]: 1.67 µg/mL
pseudovirus neutralization IC50 [4]: > 10 µg/mL
pseudovirus neutralization IC50 [5]: > 10 µg/mL
pseudovirus neutralization IC50 [6]: 1.4 µg/mL
pseudovirus neutralization IC50 [7]: > 10 µg/mL

B10: BD57-0164 (protein)
chain 1: EVQLVESGGGLVKPGGSLRLSCAASGITFTNAWVTWVRQTPGKRLEWVGRIKSKTDGGTTDYTAPVKGRFTISRDDSKNTVYLQMNSLKTDDTAVYYCTTVSWIHQWLVGEDNAFDIWGQGTMVTVSS
chain 2: EIVLTQSPGTLSLSPGERATLSCRASQTFSSTYLAWYQQKPGQAPRLLIYGALSRASGIPDRFSGSGSGTDFTLTISRLEPEDFAVYYCQQYYSSPYTFGQGTKLEIK
pseudovirus neutralization IC50 [1]: 0.54 µg/mL
pseudovirus neutralization IC50 [2]: 1.02 µg/mL
pseudovirus neutralization IC50 [3]: 0.658 µg/mL
pseudovirus neutralization IC50 [4]: 2.23 µg/mL
pseudovirus neutralization IC50 [5]: 2.3 µg/mL
pseudovirus neutralization IC50 [6]: 1.92 µg/mL
pseudovirus neutralization IC50 [7]: 2.8 µg/mL

B11: BD57-0167 (protein)
chain 1: EVQLVQSGAEVKKSGESLEISCKASGYSFNTYWIGWVRQMPGRGLEWMGIVYPGDSDTNYSPSFQGQVTISADKSISTAYLQWSSLKASDTAIYYCARRSQTVGNFDYWGQGILVTVSS
chain 2: SYVLTQTPSVSVAPGKTASITCGGKNIGSKSVHWYQQRPGQAPILVISFDHDRPSGIPERFSGSKSGNTATLTISRVEAGDEADYYCQVWDSNSDLYVFGPGTSVTVL
pseudovirus neutralization IC50 [1]: 0.538 µg/mL
pseudovirus neutralization IC50 [2]: 1.03 µg/mL
pseudovirus neutralization IC50 [3]: 0.49 µg/mL
pseudovirus neutralization IC50 [4]: 0.682 µg/mL
pseudovirus neutralization IC50 [5]: 0.796 µg/mL
pseudovirus neutralization IC50 [6]: 0.825 µg/mL
pseudovirus neutralization IC50 [7]: 1.82 µg/mL

B12: BD57-0176 (protein)
chain 1: QVQLQESGPGLVKPSETLSLTCTVSGGSITGYYWSWIRQPPGKRLESIAYFYSTGNTNYNPSLESRVTISVDTSKNQISLKLTSVTVADTAIYYCARHPTVSDSRYDLYIDYWGQGTLVTVSS
chain 2: DIQMTQSPSILSASVGDRVTITCRASQIISGWLAWYQQKPGKAPKLLIYEASRLQTGVPSRFSGSGYGTEFTLTISSLQPGDFATYYCQEYKTFSPWTFGPGTKVEIK
pseudovirus neutralization IC50 [1]: > 10 µg/mL
pseudovirus neutralization IC50 [2]: 0.0374 µg/mL
pseudovirus neutralization IC50 [3]: > 10 µg/mL
pseudovirus neutralization IC50 [4]: 0.0396 µg/mL
pseudovirus neutralization IC50 [5]: 2.37 µg/mL
pseudovirus neutralization IC50 [6]: > 10 µg/mL
pseudovirus neutralization IC50 [7]: 0.000892 µg/mL
